# The structures given here were assigned with low confidence; some may be wrong.
# Chains of the proteins cited; added tags and fusions are not shown. Residues count along the entry.
# UniProt Q833V7, 193-510 limits assumed: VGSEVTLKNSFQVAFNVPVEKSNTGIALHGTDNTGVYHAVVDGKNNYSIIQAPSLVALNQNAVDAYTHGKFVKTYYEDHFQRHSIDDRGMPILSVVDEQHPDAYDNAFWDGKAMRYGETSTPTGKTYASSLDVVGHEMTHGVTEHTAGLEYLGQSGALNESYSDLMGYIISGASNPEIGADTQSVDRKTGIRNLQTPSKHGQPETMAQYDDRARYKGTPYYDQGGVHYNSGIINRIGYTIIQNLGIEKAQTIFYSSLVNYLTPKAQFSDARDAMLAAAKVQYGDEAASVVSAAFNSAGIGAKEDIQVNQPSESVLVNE
# Experiments:
# [1] = tested on: recombinant BFT (rBFT); assay: NFF-3 cleavage assay; conditions: read-out: NFF3 IC50; rBFT pre-incubated with compound 30 minutes at 37° C., then NFF-3 for 24 hours
# Experimental: A NFF-3 cleavage assay was used to test activity of recombinant BFT, before or after addition of various inhibitors. The NFF-3 cleavage assay was previously described by Goulas et al., PNAS, 2011, 108(5) 1856-1861, which is incorporated by reference herein in its entirety.
# Initially, recombinant BFT (rBFT) (0.25, 0.5, 1, 2, 4, 8, or 16 μg/mL) was incubated at 37° C. with the fluorogenic substrate NFF-3 (Cayman Chemical) at a concentration of 2.5 μM, 5 μM, or 10 μM. After 18 hours, fluorescence was measured in a microplate fluorimeter.
# Next, rBFT was pre-incubated with one or more test compounds at different concentrations for 30 minutes at 37° C. The rBFT-compound mixture was then added to NFF-3 and incubated for 24 hours at 37° C. Fluorescence was then measured in a microplate fluorimeter.
# [2] = biological target: Gelatinase E (GelE) (Enterococcus faecalis (strain ATCC 700802 / V583), UniProt Q833V7); assay: Gelatinase E activity assay (FRET peptide substrate); conditions: read-out: GelE IC50; purified GelE, room temperature, 30 minutes
# Experimental: Gelatinase E (Gel E) was purified from bacterial culture supernatant from E. faecalis. E. faecalis was cultured aerobically in Todd Hewitt Broth overnight at 37° C. Nucleic acid was precipitated with 0.9% protamine solution, followed by protein precipitation with ammonium sulfate. Resuspended protein pellet was further subjected to purification using FPLC (phenyl Sepharose column). Fractions with gelatinase activity as determined by casein agar assay were pooled and further concentrated.
# Different concentrations of test compound were incubated with purified GelE and FRET-based peptide substrate (390 MMP FRET Substrate 1; Anaspec AS-27077) in assay buffer at room temperature for 30 minutes. The fluorescence signal was determined by a plate reader.
smiles,measurement,setting,value
CC[C@H](C(=O)NO)N(Cc1cccnc1)C(=O)c1ccc(OC)cc1,IC50,[1],96.3 µM
same,IC50,[2],16.4 µM

# From US20230357139A1, “SMALL MOLECULE INHIBITORS OF BACTERIAL TOXINS” (Artizan Biosciences, Inc., priority 2020, published 2023)
